Source: PMC5797126, “Identification of influenza polymerase inhibitors targeting C-terminal domain of PA through surface plasmon resonance screening” (Scientific Reports, 2018)

Tests used:
influenza RNP = influenza RNP (Influenza A virus, UniProt P15659); assay: RNP reconstitution reporter assay; type: cell-based; conditions: for RNP activities in RNP screening: highest non-cytotoxic concentration of each compound; for IC50: read-out: RNP assay IC50
[1] = tested on: influenza virus (A/WSN/33); assay: Viral yield reduction assay, A/WSN/33 in MDCK cells; type: cell-based; conditions: for inhibition of influenza viral yield (in words): A/WSN/33, 0.01 MOI, up to 100 μM
[2] = target: PAC (C-terminal domain of PA, residues 256–716 of A/WSN/33) (Influenza A virus, UniProt P15659); assay: Microscale thermophoresis (MST) with PAC; type: binding, influenza A/WSN/33; conditions: read-out: MST Kd; Kd model, NanoTemper MO.Control; Kd ± confidence level
[3] = 50% inhibition of RNP activity vs DMSO control, 293T cells, mean ± SD, three experiments

| SMILES | RNP activities in RNP screening (influenza RNP) | IC50 (influenza RNP; [3]) | IC50 [1] | inhibition of influenza viral yield (in words) [1] | IC50 (influenza RNP) | Kd [2] |
| --- | --- | --- | --- | --- | --- | --- |
| O=c1c(-c2ccccc2)c(O)c2c(n1-c1ccccc1)CCCC2 | able to inhibit RNP activities | 98.5 µM | > 100 µM | unable to inhibit influenza viral yield at 100 μM | – | – |
| Cn1c(=O)c(Cc2ccccc2)c(O)c2c(=O)n(-c3ccccc3)c(=O)n(-c3ccccc3)c21 | significant attenuation of RNP transcriptional activities | – | 30.6 µM | – | 68.8 µM | – |
| O=C1C(c2ccccc2)=C(O)c2cccc3c(=O)n(-c4ccccc4)c(O)c1c23 | able to inhibit RNP activities | > 6.25 µM | 4.78 µM | dose-dependent inhibition of influenza virus | – | 6.03 µM |
| O=C1C2=C(CCC2)NC2C1C(=O)N(c1ccccc1)C(=O)N2c1ccccc1 (centres unmarked) | able to inhibit RNP activities | > 100 µM | > 100 µM | unable to inhibit influenza viral yield at 100 μM | – | – |
| CC1(C)CC(=O)c2c(O)c(-c3ccccc3)c(=O)n(-c3ccccc3)c2C1 | able to inhibit RNP activities | 96.5 µM | > 100 µM | unable to inhibit influenza viral yield at 100 μM | – | – |

Where two headings read alike, the source gives them in different places.
